The numbers were not newly measured in publication PMC11489056, “Molecular mechanism of a triazole-containing inhibitor of Mycobacterium tuberculosis DNA gyrase” (iScience, 2024), which cites them from elsewhere.

As a reminder, the MIC is the lowest concentration that inhibits growth of the organism. Usually IC50 stands for the concentration at which inhibition is half-maximal.

≈ marks a conversion by molar mass, not a printed value. This is a selection: effects in other tests are not listed, and their absence says nothing.

For one data set, the system named is Mtb. Conditions: Figure 1E, GlaxoSmithKline MGIs; cited from earlier work.
The next data set concerns Mtb gyrase. As to conditions: Figure 1E, GlaxoSmithKline MGIs; cited from earlier work.

As to `O=c1ccc2ncccc2n1CCN1CCC(Nc2ccc(Cl)c(Cl)c2)CC1`, the MIC in the data set on Mtb is 0.04 µg/mL (≈ 0.0958 µM). Moreover, the IC50 in the data set on Mtb gyrase is 11 µM.
